Results published in patent publication US11185524B2 (Novus International, Inc., priority 2019, dated 2021).

Test system: microbial population
Test: Gas production during in vitro rumen fluid incubation (ANKOM RF Gas Production System)
Design: species or system Holstein steers (rumen fluid donors)

Row | Structure (SMILES) | Gas produced (Experiment 1, 1 h) | Gas produced (Experiment 1, 3 h) | Gas produced (Experiment 1, 6 h) | Gas produced (Experiment 1, 12 h) | Gas produced (Experiment 2, 1 h) | Gas produced (Experiment 2, 3 h) | Gas produced (Experiment 2, 6 h) | Gas produced (Experiment 2, 12 h)
1 | CSCCC(O)C(=O)O (stereo not drawn) [MHA, Methionine hydroxy analog] | 22.41 mL | 60.40 mL | 122.2 mL | 138.5 mL | 2.24 mL | 20.25 mL | 40.49 mL | 65.86 mL
2 | CSCCC1OC(=O)C(CCSC)OC1=O (stereo not drawn) [Cyclic Dimer, 3,6-bis(2-methylthio)ethyl-1,4-dioxane-2,5-dione] | 24.68 mL | 69.16 mL | 105.4 mL | 129.9 mL |  |  |  | 
